Reference: publication PMC4728507, “Bioactive Polycyclic Quinones from Marine Streptomyces sp. 182SMLY” (Marine Drugs, 2016)

Assays:
Format in all cases: cell-based
glioma U87-MG cells = assay: SRB assay, proliferation of glioma U87-MG cells; conditions: IC50 human astrocytes / IC50 U87-MG
Experimental: (§1) The compounds 1 and 2 were assayed for their activities inhibiting the proliferation of glioma C6, U251, U87-MG, and SHG-44 cells using the sulforhodamine B (SRB) assay. The SRB assay is a method that measures total cellular protein content for evaluating the activity of tested compounds against the proliferation of tumor cells. Doxorubicin (DOX) was used as a positive control. Glioma cells were treated with tested compounds for 72 h at different concentrations. […] N-acetyl-N-demethylmayamycin (1) and streptoanthraquinone A (2) were also assayed for their activity against normal human astrocytes (HA). The initial assay was conducted on the concentrations from 0.35 to 7.0 μM for 1 and on those from 1.65 to 16.5 μM for 2. The cell viability of HA cells from each tested concentration of both compounds was 100%. […]
(§2) The SRB assay was used to evaluate the activity of the isolated compounds in inhibiting the proliferation of glioma U87-MG, U251, SHG-44, and C6 cells. […] After dried, dye was dissolved in a 10 mM Tris buffer and measured at 515 nm on a microplate reader (BioTech, Winooski, VT, USA).

glioma SHG-44 cells = assay: SRB assay, proliferation of glioma SHG-44 cells; conditions: IC50 human astrocytes / IC50 SHG-44
Experimental: as §1, §2

glioma U251 cells = assay: SRB assay, proliferation of glioma U251 cells; conditions: IC50 human astrocytes / IC50 U251
Experimental: as §1, §2

| SMILES | Ratios of IC50HA/IC50gc, U87-MG (glioma U87-MG cells) | Ratios of IC50HA/IC50gc, SHG-44 (glioma SHG-44 cells) | Ratios of IC50HA/IC50gc, U251 (glioma U251 cells) |
| --- | --- | --- | --- |
| CC(=O)NC1CC(c2c(O)c3c(c4c(O)cc(C)cc24)C(=O)c2cccc(O)c2C3=O)OC(C)C1O (stereo not drawn) [Compound 1, N-acetyl-N-demethylmayamycin] | 18 | 6.4 | 35 |
| CC(=O)OC1c2c3c(c(O)c4c2C(Cc2c(O)cc(C)cc2-4)OC1C)C(=O)c1cccc(O)c1C3=O (stereo not drawn) [Compound 2, streptoanthraquinone A] | >22 | >16 | >31 |
